T1: RRS1-R-YFPv (Arabidopsis thaliana (Nd-1 ecotype), UniProt E1B328 1-1378)
T1 construct: not shown: YFPv, C-terminal, kept
T1 sequence: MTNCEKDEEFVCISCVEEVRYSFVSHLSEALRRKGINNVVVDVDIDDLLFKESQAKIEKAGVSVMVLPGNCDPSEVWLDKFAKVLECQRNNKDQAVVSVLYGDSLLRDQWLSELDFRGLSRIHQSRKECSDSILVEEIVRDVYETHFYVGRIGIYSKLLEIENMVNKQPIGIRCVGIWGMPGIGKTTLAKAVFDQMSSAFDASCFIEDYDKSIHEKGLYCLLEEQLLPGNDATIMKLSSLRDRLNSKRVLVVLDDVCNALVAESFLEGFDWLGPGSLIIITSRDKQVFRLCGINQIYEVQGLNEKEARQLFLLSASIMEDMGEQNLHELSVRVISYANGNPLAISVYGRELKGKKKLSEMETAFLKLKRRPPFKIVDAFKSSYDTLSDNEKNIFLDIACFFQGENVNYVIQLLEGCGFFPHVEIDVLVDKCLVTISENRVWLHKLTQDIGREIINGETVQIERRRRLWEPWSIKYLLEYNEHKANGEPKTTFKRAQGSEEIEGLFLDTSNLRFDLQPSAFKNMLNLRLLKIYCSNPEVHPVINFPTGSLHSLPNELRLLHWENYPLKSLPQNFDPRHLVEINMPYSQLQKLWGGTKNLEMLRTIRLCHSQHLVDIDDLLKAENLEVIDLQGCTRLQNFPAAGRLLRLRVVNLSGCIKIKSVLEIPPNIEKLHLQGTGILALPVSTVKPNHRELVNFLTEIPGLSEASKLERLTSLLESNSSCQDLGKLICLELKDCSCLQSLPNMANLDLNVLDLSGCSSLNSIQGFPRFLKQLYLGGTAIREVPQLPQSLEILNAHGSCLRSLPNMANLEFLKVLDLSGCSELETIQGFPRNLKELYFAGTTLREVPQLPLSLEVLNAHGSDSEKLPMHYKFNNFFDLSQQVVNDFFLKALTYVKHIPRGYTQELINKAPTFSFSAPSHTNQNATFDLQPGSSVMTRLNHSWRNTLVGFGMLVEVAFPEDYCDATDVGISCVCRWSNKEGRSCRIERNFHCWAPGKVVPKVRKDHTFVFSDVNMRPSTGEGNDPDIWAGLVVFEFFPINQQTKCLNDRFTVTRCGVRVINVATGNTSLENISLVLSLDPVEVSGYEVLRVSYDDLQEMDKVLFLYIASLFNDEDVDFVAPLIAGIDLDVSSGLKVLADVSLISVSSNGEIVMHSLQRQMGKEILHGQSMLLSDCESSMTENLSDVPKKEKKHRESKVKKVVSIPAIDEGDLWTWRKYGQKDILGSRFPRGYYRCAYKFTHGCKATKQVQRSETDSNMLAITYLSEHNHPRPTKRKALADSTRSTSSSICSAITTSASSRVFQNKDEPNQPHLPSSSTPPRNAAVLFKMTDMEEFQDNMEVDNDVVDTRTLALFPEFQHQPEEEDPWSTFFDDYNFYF

B1: PopP2-K383R-CFP (natural protein)
chain: MKVSSANAGVPASSADNTSARPSQTNADTTPLGRRRRAPDDAPGSPPARRQRQDSPEDSAQTMFRRAGMTSLPPSPATSEHVPLLDNRPTLERMGVDHPLPGRTWYETGHTTASLADRTSTASAAQVASSSRSAGPATAARPQPTRTSAGQQATVGRLRTQVTGFLSGALGKLQALSAQNMDPELAQFRVLDVDRAIMPLLIVAENARNPGLNLVPLHMDMAEDEEVRTQPPMAGSRHIAEFVASARPGRYRAVIDDGSHTRAADIRKDASGTSVIVVDPLRKEKDESAYVDYADNVNMEFGEHAKCAFIPVDIQKSFFDCRILSLSLALKMHDKDDAFAAFHETLRNGGDPSHHVSRAQQTEELGATLVLDGAPLVDARMMRHGQAASSVSRYLGNHPEQSTVPVNKRNETLGERTTRHLVKRKVRNRADSEGRVTSGETKEITFSNSVEQKRIALLNRAASYVNSAPPPVVMRMAKLLQDSLLDTN
B2: PopP2-C321A-CFP (natural protein)
chain: MKVSSANAGVPASSADNTSARPSQTNADTTPLGRRRRAPDDAPGSPPARRQRQDSPEDSAQTMFRRAGMTSLPPSPATSEHVPLLDNRPTLERMGVDHPLPGRTWYETGHTTASLADRTSTASAAQVASSSRSAGPATAARPQPTRTSAGQQATVGRLRTQVTGFLSGALGKLQALSAQNMDPELAQFRVLDVDRAIMPLLIVAENARNPGLNLVPLHMDMAEDEEVRTQPPMAGSRHIAEFVASARPGRYRAVIDDGSHTRAADIRKDASGTSVIVVDPLRKEKDESAYVDYADNVNMEFGEHAKCAFIPVDIQKSFFDARILSLSLALKMHDKDDAFAAFHETLRNGGDPSHHVSRAQQTEELGATLVLDGAPLVDARMMKHGQAASSVSRYLGNHPEQSTVPVNKRNETLGERTTRHLVKRKVRNRADSEGRVTSGETKEITFSNSVEQKRIALLNRAASYVNSAPPPVVMRMAKLLQDSLLDTN

Target: T1, RRS1-R-YFPv
Test: FRET or BRET

Binder | FRET efficiency E [%] | decrease of donor lifetime (delta t = tauD - tauDA) [ps] | mean CFP donor lifetime with acceptor (tau) [ns]
B1 | 12.6 | 298 | 2.06
B2 | 15 | 354 | 2.02

— article PMC2987829, “Autoacetylation of the Ralstonia solanacearum Effector PopP2 Targets a Lysine Residue Essential for RRS1-R-Mediated Immunity in Arabidopsis” (PLoS Pathogens, 2010)
